Test results reported in the supplement of paper PMC9931576.
Human monoclonal antibodies against the spike receptor-binding domain (heavy:light variable regions). IC50 against pseudoviruses bearing the spike of naturally observed variants; lower = stronger; >10 µg/ml means not reached at the top dose. No active / inactive call. The stated detection limit is 0.0005 µg/ml; values near or below 0.001 µg/ml lie at the floor of the assay.

Assays:
Assay in all cases: pseudovirus neutralization IC50; higher = weaker neutralization
[1] = target: SARS-CoV-2 Omicron BA.1 spike pseudovirus
Procedure: (§1)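 Single-round VSV luciferase pseudovirus mixed with antibody dilutions for 1 h and put on Huh-7 cells for about a day; IC50 from the dose curve.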

[2] = target: SARS-CoV-2 Omicron BA.2 spike pseudovirus
Procedure: as §1

[3] = target: SARS-CoV-2 Omicron BA.2.75 spike pseudovirus
Procedure: as §1

[4] = target: SARS-CoV-2 Omicron BA.5 spike pseudovirus
Procedure: as §1

[5] = target: SARS-CoV-2 Omicron BQ.1.1 spike pseudovirus
Procedure: as §1

[6] = target: SARS-CoV-2 Omicron XBB spike pseudovirus
Procedure: as §1

[7] = target: SARS-CoV-2 early D614G spike pseudovirus
Procedure: as §1

B1: XGv-295 (protein)
chain 1: QVQLVQSGAEVKKPGASVKVSCKASGYIFTNYYIHWVRQAPGQGLEWMAIFNPSAATASYAQKFQGRVTMTRDTSTTTVYMELRSLRFDDTAVYYCARAEGTSWLGWFDPWGQGTLVTVSS
chain 2: QSVLTQPPSASGTPGQRVTVSCSGSSSNIGSHDVYWYQQLPGTAPKLLIYKNDQRPSGVPDRFSGSTSGTSASLAISGLRSEDEADYYCAAWDDGLSGSGWVFGGGTKLTVL
[1]
  pseudovirus neutralization IC50: 0.16 µg/mL
[2]
  pseudovirus neutralization IC50: 0.00831 µg/mL
[3]
  pseudovirus neutralization IC50: 0.122 µg/mL
[4]
  pseudovirus neutralization IC50: 0.00839 µg/mL
[5]
  pseudovirus neutralization IC50: 0.049 µg/mL
[6]
  pseudovirus neutralization IC50: > 10 µg/mL
[7]
  pseudovirus neutralization IC50: 0.0019 µg/mL

B2: XGv-347 (protein)
chain 1: QMQLVQSGPEVKKPGTSVKVSCKASGFTFTDVSSLQWVRQARGQRLEWIGWTVVGTGNTNYAPRFQERVTITTDKSTSTAYMELSSLRSEDTAVYYCAAPFCSETSCSDGFDLWGQGTKVTVSS
chain 2: EIVLTQSPGTLSLSPGDRATLSCRASQSVRISYLAWYQQKPGQAPRLLISGSSSRATGIPDRFSASGSGTDFALTISRLEPEDFAVYYCQQYDNSPWTFGQGTKVEVK
[1]
  pseudovirus neutralization IC50: 0.00489 µg/mL
[2]
  pseudovirus neutralization IC50: 0.00769 µg/mL
[3]
  pseudovirus neutralization IC50: 0.00643 µg/mL
[4]
  pseudovirus neutralization IC50: > 10 µg/mL
[5]
  pseudovirus neutralization IC50: > 10 µg/mL
[6]
  pseudovirus neutralization IC50: > 10 µg/mL
[7]
  pseudovirus neutralization IC50: 0.00457 µg/mL

B3: XGv-298 (protein)
chain 1: EVQLVESGGGLMQPGGSLRLSCAASGFIVSRNYMNWVRQAPGKGLEWVSVIYSGGTTDYADSVKGRFTVSRDNSMNTLYLQMNSLRAEDTAVYYCARDLVVFGMDVWGQGTTVTVSS
chain 2: DIQLTQSPSSLSASVGDRVTITCRASQGISSYLAWYQQKPGKAPKLLIYAASTLQSGVPSRFSGSGSETDFTLTISSLQPEDFATYYCQHLNGYPLTFGGGTKVEIK
[1]
  pseudovirus neutralization IC50: > 10 µg/mL
[2]
  pseudovirus neutralization IC50: > 10 µg/mL
[3]
  pseudovirus neutralization IC50: > 10 µg/mL
[4]
  pseudovirus neutralization IC50: > 10 µg/mL
[5]
  pseudovirus neutralization IC50: > 10 µg/mL
[6]
  pseudovirus neutralization IC50: > 10 µg/mL
[7]
  pseudovirus neutralization IC50: 0.0062 µg/mL

B4: XGv-324 (protein)
chain 1: QVQLVQSGAEVKKPGSSVKVSCKTSGGTFNTYAINWVRQAPGQGLEWMGRIIPVLGVATSAQKFQGRVTITADKSTITAFMELSSLRSEDTAVYYCARGIVGPTPGWFDFWGQGTLVTVSS
chain 2: EIVMTQSPATLSVSPGERATLSCRASQSVSSDLAWYQQKPGQAPRLLIYGASTRATGVPARFSGSGSGTEFTLSISSLQSEDFAVYYCQQYNNGQTFGQGTTVDIK
[1]
  pseudovirus neutralization IC50: > 10 µg/mL
[2]
  pseudovirus neutralization IC50: > 10 µg/mL
[3]
  pseudovirus neutralization IC50: > 10 µg/mL
[4]
  pseudovirus neutralization IC50: > 10 µg/mL
[5]
  pseudovirus neutralization IC50: > 10 µg/mL
[6]
  pseudovirus neutralization IC50: > 10 µg/mL
[7]
  pseudovirus neutralization IC50: 0.00272 µg/mL

B5: XGv-294 (protein)
chain 1: QVQLVQSGAEVKKPGASVKVSCKASGYTFTRHYIHWVRQAPGQGLEWMGIINPSGGGASYAQKFQGRVTMTRDTSTSTVYMEVSSLRYEDTAVYYCARAEGGSWLGWFDPWGQGTLVTVSS
chain 2: QSVLTQPPSASGTPGQRVTISCSGGSSNIGNNYVYWYQQLPGTAPKLLIYGNNQRPSGVPDRFSGSKSGTSASLAISGLRSEDEADYHCAAWDDGLSGSGWVFGGGTKLT
[1]
  pseudovirus neutralization IC50: > 10 µg/mL
[2]
  pseudovirus neutralization IC50: > 10 µg/mL
[3]
  pseudovirus neutralization IC50: > 10 µg/mL
[4]
  pseudovirus neutralization IC50: > 10 µg/mL
[5]
  pseudovirus neutralization IC50: > 10 µg/mL
[6]
  pseudovirus neutralization IC50: > 10 µg/mL
[7]
  pseudovirus neutralization IC50: 0.0185 µg/mL

B6: XGv-337 (protein)
chain 1: EVQLVESGGGLVQPGGSLRLSCAASGFPFITYWMSWVRQTPGKGLEWVANIKEDGSEKNYVDSVKGRFTISRDNAENSLYLRMNSLRTEDTAVYYCAREIRRTIPTSGMDVWGQGTTVIVSS
chain 2: SYELTQPPSVSVSPGQTARITCTGDALPKQYAYWYQQKPGQAPVLIISKDNERASGIPERISGSRSGTTVTLTISGVQAEDEAEYYCQSADSSGSYSYVFGTGTK
[1]
  pseudovirus neutralization IC50: 0.0208 µg/mL
[2]
  pseudovirus neutralization IC50: 0.0123 µg/mL
[3]
  pseudovirus neutralization IC50: 0.0141 µg/mL
[4]
  pseudovirus neutralization IC50: 3.63 µg/mL
[5]
  pseudovirus neutralization IC50: 1.5 µg/mL
[6]
  pseudovirus neutralization IC50: 3.72 µg/mL
[7]
  pseudovirus neutralization IC50: 0.00803 µg/mL

B7: XGv-387 (protein)
chain 1: EVQLVESGGGLIQPGGSLRLSCAASGVIVSSNYMSWVRQAPGKGLEWVSVMYSGGSTFYADSVKGRFTISRDNSKNTLYLQMNRLRAEDTAVYFCARGDGGSYLGGAFDIWGQGTMVTVSS
chain 2: DIQMTQSPSSLSASVGDRVTLTCRASQSISTYLNWYQQKPGKAPKLLIYAASSLQSGVPSRFSGSGSGTDFTLTINSLQPEDFATYYCQQSYSLPALTFGGGTKVEIK
[1]
  pseudovirus neutralization IC50: 0.234 µg/mL
[2]
  pseudovirus neutralization IC50: 0.136 µg/mL
[3]
  pseudovirus neutralization IC50: 0.744 µg/mL
[4]
  pseudovirus neutralization IC50: 5.36 µg/mL
[7]
  pseudovirus neutralization IC50: 0.0159 µg/mL
